# Sequence variants of PSTVd loop 6 after infection

Data from the supplement of Wu et al. 2024, doi:10.1371/journal.ppat.1012142.

The pool varies loop 6 of the PSTVd intermediate strain in the pattern UNNNCGNNNG; wild type is UGACCGCGAG (upper and lower strand joined, each 5' to 3', the first 5 letters being the upper strand, closing pairs included).

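Three N. benthamiana plants were inoculated with the whole mutant pool. Samples came from the inoculated region at 5 days, the leaf margin at 10 and upper systemic leaves at 12.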

Values are reads per thousand in the sample; higher means more abundant, 0 means not found.
Each value is the mean of three plants.
"Pool" is the share in the plasmid pool used as inoculum, on the same scale.
The inoculated region was read from the minus strand, the other sites from the plus strand.
The authors trace changes outside the varied positions to PCR and sequencing errors or to mutation in the plant; presence does not show that a variant is infectious alone.
Samples held 36,220 to 57,551 reads, so the smallest values rest on one or two reads.
Wild type was 20.7 per thousand in the pool and the most common sequence in every sample (inoculated region 195, 198, 203; leaf margin 629, 591, 734; systemic leaves 942, 870, 868).

sequence | pool | inoculated region | leaf margin | systemic leaves
UAAUCGAACG | 0.366 | 0.531 | 0.0445 | 0.0196
UAAUCGCGUG | 0.196 | 0.144 | 0.0176 | 0
UACCCGGCCG | 0.157 | 0.0833 | 0.00773 | 0
UACUCGCAUA | 0.0131 | 0 | 0 | 0
UAGACGGAAG | 0.170 | 0.119 | 0 | 0
UAGACGGACG | 0.118 | 0.722 | 0.146 | 0
UAGCCGCAAG | 0.157 | 0.673 | 0.175 | 0
UAGCCGCGUG | 0.235 | 0.113 | 0.849 | 0.00684
UAGCCGUACG | 0.353 | 0.0834 | 0.0338 | 0
UAGCCGUAGG | 0.183 | 0.0830 | 0.0414 | 0
UAGGCGGGAG | 0.157 | 0.0827 | 0.0155 | 0
UAUCCGAGAG | 0.170 | 0.131 | 0 | 0
UAUGCUGUGG | 0.0131 | 0 | 0 | 0
UAUUCGAGUG | 0.170 | 0.0829 | 0.00773 | 0
UCAGCGUCAG | 0.288 | 0.588 | 0.0591 | 0
UCCACGAAAG | 0.118 | 0.102 | 0.00773 | 0
UCCGCAGCGG | 0.0131 | 0 | 0 | 0
UCCGCGCUCG | 0.261 | 0.0896 | 0.0155 | 0
UCGCCACAGG | 0.0131 | 0 | 0 | 0
UCGCCGAAUG | 0.275 | 0.118 | 0 | 0.00684
UCGGCGGAGG | 0.261 | 0.0660 | 0 | 0
UCGUCGUUGG | 0.170 | 0.154 | 0 | 0
UCUCCGUGGG | 0.170 | 0.0778 | 0.00920 | 0
UCUGCGACCG | 0.235 | 0.0836 | 0 | 0
UCUGCGUCGG | 0.340 | 0.0840 | 0.00773 | 0
UGAGCGUGCG | 0.157 | 0.0480 | 0 | 0
UGAGCGUUCG | 0.183 | 0.0893 | 0.0276 | 0
UGCGCGGAAG | 0.0654 | 0.696 | 0.00773 | 0.0136
UGCUCGACCG | 0.144 | 0.0890 | 0.00773 | 0
UGCUCGCCAG | 0.196 | 0.0836 | 0.00773 | 0
UGGGCGAAAG | 0.170 | 0.0780 | 0 | 0
UGGGCGCGCG | 0.105 | 0.113 | 0.00920 | 0
UGUCCGUCUG | 0.235 | 0.0596 | 0 | 0
UUAACGCACG | 0.196 | 0.625 | 0.0983 | 0.0196
UUACCGUUGG | 0.366 | 0.144 | 0 | 0
UUCACGCCCG | 0.222 | 0.143 | 0 | 0.00684
UUCUCGUGCG | 0.222 | 0.137 | 0.00773 | 0
UUUACGGCGG | 0.314 | 0.144 | 0.00920 | 0.0135
UUUGCGCAAG | 0.131 | 0.205 | 0.0232 | 0
UUUUCGACGG | 0.275 | 0.100 | 0 | 0
UUUUCGUCAG | 0.222 | 0.0654 | 0.00920 | 0